Consider seven compounds from PubChem BioAssay AID573 (SRMLSC, 2007).

The structures appear in SMILES notation. Only a part is listed here, and it is no random draw. Activity calls are given as the source filed them.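 Rule for the calls: active = growth inhibition at or above a cutoff equal to the mean over every tested compound plus 3 SD (cut at about 60% in these data); inactive = the rest.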

A short description of the assay: growth inhibitors of E. coli tolC mutant, primary screen, strain BW25113 ΔtolC::kan, 384-well (AID 573). The settings on record: OD615, active compounds read high, screened at 10 µM (by protocol). The essentials: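 System: E. coli ΔtolC::kan strain BW25113; Buffer or medium: LB broth supplemented with 50 µg/mL kanamycin; Compound: 10 µM final, single dose; Incubation: bacterial growth with compound for 20 h at 37 °C; Signal: A615 absorbance measurement; Evaluation: growth inhibition in percent.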
On to `N/C(=N\O)c1c(N)no[n+]1[O-]`, for which the growth inhibition is inactive: -17.2%. Next, `CCOc1ncccc1C(=O)NCC1(N2CCOCC2)CCCCC1`: inactive: 3.08%; `CCC(CO)(C(=O)OC1CN2CCC1CC2)c1ccccc1` (configuration not stated): inactive: -21.2%; `Fc1ccccc1NC1CCN(Cc2ccccc2)CC1`: inactive: 16.4%. For the compound `COc1ccc(NC2CCN(CCc3ccccc3)CC2)c(OC)c1`, the growth inhibition was inactive: -14.9%. For `O=C(OC1CN2CCC1CC2)C1c2ccccc2Oc2ccccc21` (configuration not stated), the growth inhibition was inactive: -4.04%. Consider `N#CC1(Nc2ccccc2)CCN(CCc2ccccc2)CC1`, for which the growth inhibition is inactive: -29.6%.
